Experimental data: publication PMC8863796 (Communications Biology, 2022)

These compounds were tested on SARS-CoV-2. Conditions: Selectivity index = CC50/EC50.
Assay type: cell-based

In order of falling SI:
1. CCC(CC)COC(=O)[C@H](C)N[P@](=O)(OC[C@H]1O[C@@](C#N)(c2ccc3c(N)ncnn23)[C@H](O)[C@@H]1O)Oc1ccccc1 [Remdesivir]  5333
2. COC(=O)N[C@H](C(=O)N1CCC[C@H]1C(=O)Nc1ccc([C@@H]2CC[C@@H](c3ccc(NC(=O)[C@@H]4CCCN4C(=O)[C@@H](NC(=O)OC)C(C)C)cc3)N2c2ccc(C(C)(C)C)cc2)cc1)C(C)C [Ombitasvir]  175
3. NC(=O)c1nc(F)cnc1O [Favipiravir, 6-fluoro-3-hydroxy-2-pyrazinecarboxamide]  85
4. CC(C)OC(=O)[C@H](C)N[P@](=O)(OC[C@H]1O[C@@H](n2ccc(=O)[nH]c2=O)[C@](C)(F)[C@@H]1O)Oc1ccccc1 [Sofosbuvir]  82
5. COC(=O)N[C@H](C(=O)N1CCC[C@H]1c1nc2cc([C@H]3CC[C@H](c4cc5nc([C@@H]6CCCN6C(=O)[C@@H](NC(=O)OC)[C@@H](C)OC)[nH]c5cc4F)N3c3cc(F)c(N4CCC(c5ccc(F)cc5)CC4)c(F)c3)c(F)cc2[nH]1)[C@@H](C)OC [Pibrentasvir]  31
6. CC(C)OC(=O)OCOP(=O)(CO[C@H](C)Cn1cnc2c(N)ncnc21)OCOC(=O)OC(C)C [Tenofovir, Tenofovir disoproxil]  21
